# Test system: primary human hepatocytes
substance,measurement,value
Aflatoxin B1,Cytotoxicity in BioActivator hepatocytes at end of co-culture (in words),LC50 responses

# Reference: US11376580B2, “Methods and systems comprising modified pipettes for transferring and preserving biomaterial” (UNIVERSITY OF PITTSBURGH—OF THE COMMONWEALTH SYSTEM OF …, priority 2017, dated 2022)
